Pooled drug test results. Numbers come from NIAID ChemDB, via PubChem.

All rows: toxicity to cultured cells; endpoint: CC50

Neighbouring rows are from separate reports.

| smiles | cell line | read by | result |
|---|---|---|---|
| Cc1cn([C@H]2C[C@H](N=[N+]=[N-])[C@@H](CO)O2)c(=O)[nH]c1=O | HEL | MTS | 175 µM |
| Cc1cccc(NC(=O)NC2N=C(c3ccccc3)c3ccccc3NC2=O)c1 | HEP-2 |  | 4.3 µM |
| FC(F)(F)c1ccccc1-c1nc(=S)[nH][nH]1 | THP-1 | MTT | 38.07 µg/mL |
| COC(=O)[C@@H]1[C@H](c2cc(OC)c(OC(C)=O)c(OC(C)=O)c2)c2cc3c(cc2C2=NOC[C@@H]21)OCO3 | MEL-28 |  | 20 µM |
| Cc1nccc2c(C)c3c(cc12)c1ccccc1n3CCC1CO1 | VERO |  | 0.05 µg/mL |
| Nc1ccn([C@H]2CC[C@@H](CO)O2)c(=O)n1 | HEL | MTS | 231 µM |
| CC(C)[C@H](NC(=O)OCc1ccccc1)C(=O)NC(Cc1ccccc1)C(O)C(Cc1ccccc1)NC(=O)OC(C)(C)C | H9 | trypan blue | 20 µM |
| O=C1C(=O)N(CCCNc2ccnc3cc(C(F)(F)F)ccc23)c2cc(Br)ccc21 | Human foreskin fibroblasts | MTT / absorbance | 4.75 µM |
| Nc1ccn(C[C@@H](CO)OCP(=O)(O)O)c(=O)n1 | HSB-2 |  | 39 µg/mL |
| C=C1C2C[C@]3(O)C=C4C=CC(=O)OC(C)(C)C4[C@H](O)CC3[C@]2(C)CCC1(O)C(C)C1CC=C(C)C(=O)O1 | HL-60 | MTT | 24.33 µM |
| CC(=O)Nc1n[n+]([O-])c2cc(C)ccc2[n+]1[O-] | VERO |  | 0.34 µg/mL |
| COc1ccc(C(=O)NC2N=C(c3ccccc3)c3ccccc3NC2=O)c(OC)c1 | HEP-2 |  | <0.3 µM |
| C[C@@H](Cn1cnc2c(N)nc(N)nc21)OCP(=O)(O)O | P3HR-1 |  | >100 µg/mL |
| CCCCCCCCCCCCCCCC[N+](C)(C)Cc1ccccc1 | MCF | MTT | 1 µM |
| Nc1cc(=O)n(CCOCP(=O)(O)O)c(N)n1 | L1210 |  | <10 µM |
| NC12CC3CC(CC(C3)C1)C2 | Panc-1 |  | 40–1000 µM |
| CCSc1nnc(-c2ccc(F)cc2)o1 | THP-1 | MTT | >100 µg/mL |
| NC(=S)N=Nc1c(O)n(CN2CCN(c3ccnc4cc(Cl)ccc34)CC2)c2cccc(Cl)c12 | Human foreskin fibroblasts | MTT / absorbance | 5 µM |
| Cc1cn([C@H]2C/C(=N\O)[C@@H](CO)O2)c(=O)[nH]c1=O | P3HR-1 |  | >100 µg/mL |
| Cc1ccc(NCCNCC(C)(C)O)c2c(=O)c3ccccc3sc12 | VERO |  | 3.8 µg/mL |
| OC[C@@H]1C[C@@H](O)[C@H](n2cnc3c(NC4CCCCCC4)ccnc32)O1 | MDBK |  | 293 µM |
| CCCCCCCCCCCCCCCCOP(=O)([O-])OCCC[N+](C)(C)C | HUVEC | MTT | >100 µM |
| CO[C@@]12[C@H](COC(N)=O)C3=C(C(=O)C(C)=C(N)C3=O)N1C[C@H]1[C@@H]2N1C | VERO |  | 0.4 µg/mL |
| Nc1ncc2c(ncn2COC(CO)CO)n1 | BCBL-1 |  | 24 µM |
| CCOC(=O)C(=O)Nc1nc2c(s1)C(=O)c1ccccc1C2=O | VERO |  | 2 µg/mL |
| CC(C)[C@H](NC(=O)OCc1ccccn1)C(=O)N[C@@H](Cc1ccccc1)[C@@H](O)[C@H](O)[C@H](Cc1ccccc1)NC(=O)[C@@H](NC(=O)OCc1ccccn1)C(C)C | H9 | trypan blue | >100 µM |
| COc1cc([C@@H]2c3cc4c(cc3[C@H](OC(C)=O)[C@@H]3COC(=O)[C@H]23)OCO4)cc2c1OCCO2 | MEL-28 |  | 2.2 µM |
| CC(N)C12CC3CC(CC(C3)C1)C2 | 161-Br |  | 10–4000 µM |
| OC[C@H]1O[C@@H](n2cnc3c(NC4CCCCCC4)nc(Cl)nc32)CC1O | Sheep chondrocytes G81092 | MTT | 98 µM |
| CC(C)(C)CC(C)(C)c1ccc(OCCOP(=O)([O-])OCC[N+](C)(C)Cc2ccccc2)cc1 | MCF | MTT | >100 µM |
| OC[C@@H]1C[C@@H](O)[C@H](n2cnc3c(NC4CCCCC4)nc(Cl)cc32)O1 | MDBK |  | 255 µM |
| O=C(NCc1ccccc1F)NC1N=C(c2ccccc2)c2ccccc2NC1=O | HEP-2 |  | 2 µM |
| Nc1ccn(C[C@@H](CO)OCP(=O)(O)O)c(=O)n1 | OST TK- |  | 868 µM |
| OC[C@H]1O[C@@H](n2cnc3c(NC4CC4)cc(Cl)nc32)C[C@@H]1O | MDBK |  | 185 µM |
| CCN(CCO)Cc1c(-c2ccccc2)oc(-c2ccccc2)c1Cl | VERO |  | 16.6 µg/mL |
| CC(C)(C)CC(C)(C)c1ccc(OCCOP(=O)([O-])OCCC[N+](C)(C)Cc2ccccc2)cc1 | MDA | MTT | >100 µM |
| O=C1C(=O)N(CCCNc2ccnc3cc(C(F)(F)F)ccc23)c2cccc(Br)c21 | Human foreskin fibroblasts | MTT / absorbance | 11 µM |
| CCC/C=C1\OC(=O)C2=C1CC[C@H]1[C@H]3C=C4C(=O)O/C(=C\CCC)[C@@]4(CC3)[C@@H]21 | RAW 264.7 |  | 200 µg/mL |
| O=c1[nH]c(=O)n([C@H]2C[C@H](O)[C@@H](CO)O2)cc1/C=C/Br | HEL | MTS | >500 µM |
| OC[C@@H]1C[C@@H](O)[C@H](n2cnc3c(NC4CCCCCC4)cc(Cl)nc32)O1 | Sheep chondrocytes G81092 | MTT | 145 µM |
| O=C1C=C(Nc2cnccn2)c2ccccc2C1=O | VERO |  | 0.65 µg/mL |
| CC(C)[C@H](NC(=O)OCc1cccnc1)C(=O)N[C@@H](Cc1ccccc1)[C@@H](O)[C@@H](O)[C@H](Cc1ccccc1)NC(=O)OC(C)(C)C | H9 | trypan blue | 45 µM |
| Clc1ccc(-c2nc(SCC3CC3)n[nH]2)cc1 | THP-1 | MTT | >100 µg/mL |
| OC[C@H]1O[C@@H](n2cnc3c(NC4CC4)nc(Cl)nc32)C[C@@H]1O | Sheep chondrocytes G81092 | MTT | 234 µM |
| COc1cc([C@@H]2c3cc4c(cc3[C@H](OC(C)=O)[C@@H]3COC(=O)[C@H]23)OCO4)cc(OC)c1O | P-388 |  | 0.11 µM |
| O=C(NC1N=C(c2ccccc2)c2ccccc2NC1=O)c1ccccn1 | HEP-2 |  | 6.4 µM |
| C[P+]1(C)CCc2c1ccc1ccccc21 | VERO |  | >62.5 µg/mL |
| O=C(O)P(=O)(O)O | U138-MG |  | >400 µg/mL |
| COC1=CC([C@@H]2c3cc4c(cc3[C@H](O)[C@@H]3COC(=O)[C@H]32)OCO4)=CC(=O)C1=O | P-388 |  | 1.3 µM |
| C/C(=N/NC(=S)NCc1ccccc1)c1nccnc1C | VERO |  | <0.41 µg/mL |
| OC[C@H]1O[C@@H](n2cnc3c(NC4CC4)ncnc32)[C@H](O)[C@@H]1O | Sheep chondrocytes G81092 |  | 105 µM |
| Nc1ccn(C[C@@H](CO)OCP(=O)(O)O)c(=O)n1 | U373-MG |  | 112 µg/mL |
| FC(F)(F)c1ccc2c(NCCCN3CCCC3)ccnc2c1 | Human foreskin fibroblasts | MTT / absorbance | 10 µM |
| CCCCN(C)CCNc1cc(C)nc(Nc2nc3ccc(Cl)cc3[nH]2)n1 | VERO |  | 2.7 µg/mL |
| CC1=CCC(C(C)C2=C(C)C3C[C@]4(O)C=C5C=CC(=O)OC(C)(C)C5[C@H](O)CC4[C@]3(C)C=C2)OC1=O | HL-60 | MTT | 19.56 µM |
| FC(F)(F)c1ccc2c(NCCCN3CCC(c4ccccc4)CC3)ccnc2c1 | Human foreskin fibroblasts | MTT / absorbance | 3 µM |
| Nc1nc2c(ncn2COC(CO)CO)c(=O)[nH]1 | P3HR-1 |  | 11 µg/mL |
| Nc1ncnc2c1ncn2C[C@@H](CO)OCP(=O)(O)O | HSB-2 |  | 14 µg/mL |
| C=C(C)[C@@H]1CCC2[C@]3(CC[C@]4(C)[C@@H]([C@H](C)CC/C=C(/C)C(=O)O)CC[C@@]24C)C[C@]13CCC(=O)O | BEL-7402 | MTT | >50 µM |
| S=C(S)N1CCCCCC1 | VERO |  | 7.7 µg/mL |
| CC[C@@]1(O)C(=O)OCc2c1cc1n(c2=O)Cc2cc3ccccc3nc2-1 | HL-60 | MTT | 0.651 µg/mL |
| CC(C)[C@H](NC(=O)OCc1ccccc1)C(=O)N[C@@H](Cc1ccccc1)[C@H](O)[C@H](Cc1ccccc1)NC(=O)[C@@H](NC(=O)OCc1ccncc1)C(C)C | H9 | trypan blue | 15 µM |
| Nc1nc2c(ncn2COCCO)c(=O)[nH]1 | BCBL-1 |  | ≥690 µM |
| O=C1C(=O)c2nc3ccccc3nc2-c2ccccc21 | VERO |  | 0.42 µg/mL |
| Nc1ccn(C[C@@H](CO)OCP(=O)(O)O)c(=O)n1 | P3HR-1 |  | 18 µg/mL |
| Cc1oc2c(C)c3oc(=O)cc(C)c3cc2c1CCl | VERO |  | 3.64 µg/mL |
| Nc1nc(OCCOCP(=O)(O)O)cc(=O)[nH]1 | HeLa S3 |  | <10 µM |
| Fc1ccc(-c2nc(SCC3CC3)n[nH]2)cc1 | Panc-1 | MTT | >100 µg/mL |
| O=C1C(=O)N(CN2CCN(c3ccnc4cc(Cl)ccc34)CC2)c2cc(Br)ccc21 | Human foreskin fibroblasts | MTT / absorbance | 9.5 µM |
| C=C1C(C(C)C2CC=C(C)C(=O)O2)=CC[C@]2(C)C1C[C@]1(O)C=C3C=CC(=O)OC(C)(C)C3[C@H](O)CC21 | BEL-7402 | MTT | 0.92 µM |
| COc1ccc2[nH]c3c(C)c4ccncc4c(C)c3c2c1 | VERO |  | 0.4 µg/mL |
| CN(C)c1cc(OCCOCP(=O)(O)O)nc(N)n1 | HeLa S3 |  | <10 µM |
| O=C(Nc1cccs1)NC1N=C(c2ccccc2)c2ccccc2NC1=O | HEP-2 |  | 3.4 µM |
| Cc1ccc(NCCNCCO)c2c(=O)c3cc(O)ccc3sc12 | VERO |  | 0.81 µg/mL |
| Nc1nc(N)c2ncn(C[C@@H](CO)OCP(=O)(O)O)c2n1 | HSB-2 |  | 99 µg/mL |
| Nc1cc(OC[C@@H](CO)OCP(=O)(O)O)nc(N)n1 | HEL | MTS | 170 µM |
| Nc1ccn(C[C@@H](CO)OCP(=O)(O)O)c(=O)n1 | BCBL-1 |  | 95 µg/mL |
| CSC(=S)NN=C(C)C | VERO |  | 10.93 µg/mL |
| CC(C)C(NC(=O)OCc1cccnc1)C(=O)N[C@@H](Cc1ccccc1)C(O)[C@H](Cc1ccccc1)NC(=O)C(NC(=O)OCc1cccnc1)C(C)C | H9 | trypan blue | >100 µM |
| COC(=O)[C@H]1C2CON=C2c2cc3c(cc2[C@H]1c1cc(OC)c(OC)c(OC)c1)OCO3 | HT-29 |  | 11 µM |
| C=C[C@@H](O)C#CC#C[C@@H](O)/C=C\CCCCCCC | RAW 264.7 |  | 5 µg/mL |
| CCn1c(O)c(C(=O)Nc2cccs2)c(=O)n(CC)c1=S | VERO |  | 1.7 µg/mL |
| CCC/C=C1/OC(=O)c2ccccc21 | RAW 264.7 |  | 250 µg/mL |
| Nc1nc2c(ncn2COC(CO)CO)c(=O)[nH]1 | P3HR-1 |  | 12 µg/mL |
| Nc1cc(=O)n(CCOCP(=O)(O)O)cn1 | L1210 |  | <10 µM |
| OC[C@H]1O[C@@H](n2cnc3c(NC4CCCC4)cc(Cl)nc32)[C@H](O)[C@@H]1O | Sheep chondrocytes G81092 | MTT | 260 µM |
| c1ccc(-c2oc3ccc4ccccc4c3c2-c2ccc(OCCN3CCCC3)cc2)cc1 | VERO |  | 2.1 µg/mL |
| S=c1[nH]nc(-c2ccc(Cl)cc2)s1 | Panc-1 | MTT | >100 µg/mL |
| OC(c1cc(-c2ccc(C(F)(F)F)cc2)nc(C(F)(F)F)c1)C1CCCCN1 | VERO |  | 1.39 µg/mL |
| O=C(O)P(=O)(O)O | BCBL-1 |  | ≥702 µM |
| CC(C)[C@H](NC(=O)NCc1ccccn1)C(=O)N[C@@H](Cc1ccccc1)C(O)[C@H](Cc1ccccc1)NC(=O)[C@@H](NC(=O)NCc1ccccn1)C(C)C | H9 | trypan blue | >100 µM |
| CSc1nc(N)cc(OCCOCP(=O)(O)O)n1 | L1210 |  | <10 µM |
| C[C@H](Cn1cnc2c(N)nc(N)nc21)OCP(=O)(O)O | P3HR-1 |  | 160 µg/mL |

14 of the rows above, restated:

smiles	cell line	read by	result
O=C1C(=O)c2nc3ccccc3nc2-c2ccccc21	VERO		0.42 µg/mL
Nc1ncc2c(ncn2COC(CO)CO)n1	BCBL-1		24 µM
O=C1C(=O)N(CCCNc2ccnc3cc(C(F)(F)F)ccc23)c2cc(Br)ccc21	Human foreskin fibroblasts	MTT / absorbance	4.75 µM
COc1ccc2[nH]c3c(C)c4ccncc4c(C)c3c2c1	VERO		0.4 µg/mL
O=C1C(=O)N(CN2CCN(c3ccnc4cc(Cl)ccc34)CC2)c2cc(Br)ccc21	Human foreskin fibroblasts	MTT / absorbance	9.5 µM
NC12CC3CC(CC(C3)C1)C2	Panc-1		40–1000 µM
C/C(=N/NC(=S)NCc1ccccc1)c1nccnc1C	VERO		<0.41 µg/mL
CSc1nc(N)cc(OCCOCP(=O)(O)O)n1	L1210		<10 µM
CO[C@@]12[C@H](COC(N)=O)C3=C(C(=O)C(C)=C(N)C3=O)N1C[C@H]1[C@@H]2N1C	VERO		0.4 µg/mL
CCSc1nnc(-c2ccc(F)cc2)o1	THP-1	MTT	>100 µg/mL
C=C[C@@H](O)C#CC#C[C@@H](O)/C=C\CCCCCCC	RAW 264.7		5 µg/mL
FC(F)(F)c1ccc2c(NCCCN3CCCC3)ccnc2c1	Human foreskin fibroblasts	MTT / absorbance	10 µM
CN(C)c1cc(OCCOCP(=O)(O)O)nc(N)n1	HeLa S3		<10 µM
C=C1C(C(C)C2CC=C(C)C(=O)O2)=CC[C@]2(C)C1C[C@]1(O)C=C3C=CC(=O)OC(C)(C)C3[C@H](O)CC21	BEL-7402	MTT	0.92 µM

CCn: concentration that lowers growth or viability of the cells by n%. Two numbers with a dash give a range or band. Blank or dashed fields: not listed here.